Tested on: mo-DCs
Assay: Alexa-NadAΔ351-405 binding to mo-DCs (flow cytometry, Scatchard analysis)
Set-up: species or system human
Conditions: Scatchard plot
Experimental: In some cases, DCs primed or not with IFN-γ were treated at 37° C. for 1 hour with FCS/RPMI containing Bafilomycin A1 200 nM, incubated at 37° C. (in RPMI medium supplemented with 10% FBS and Bafilomycin A1) or 0° C. (in PBS supplemented with 10% FBS) for 3 hours with different concentrations (0.0375-5 μM) of Alexa-NadAΔ351-405 or NadA. Afterward cells were washed and suspended in FACS buffer for FACS analysis. Scatchard plots were constructed from data obtained from cell-associated mean fluorescence intensities due to cell-bound Alexa NadA were measured. The dissociation constant Kd and maximal binding capacities were then determined by Scatchard analyses.

Q: NadAΔ351-405 was tested. Which “fraction of binding sites with high affinity” value did it give?
A: 20-30%

Q: What about the “fraction of binding sites with low affinity” value of the same substance?
A: 70-80%

Reference: patent publication US20110008279A1, “Methods and Compositions Relating to Adhesins as Adjuvants” (priority 2005, published 2011)
